Assay results: patent publication US20080047904A1, “Treatment for Hydrostatic Testing Water” (priority 2004, published 2008)

Experiment: Corrosivity by Linear Polarization Resistance (LPR) in synthetic seawater
Assay type: physicochemical

Structure (SMILES): O=CCCCC=O [Glutaraldehyde, glutaraldehyde]
- corrosion rate (LPR) (600 ppm glutaraldehyde, 60° C., Aerated synthetic seawater): 5.3 mpy
- corrosion rate (LPR) (600 ppm glutaraldehyde, 60° C., Deaerated synthetic seawater): 4.8 mpy
- corrosion rate (LPR) (600 ppm glutaraldehyde, Room temp., Aerated synthetic seawater): 6.4 mpy
- corrosion rate (LPR) (600 ppm glutaraldehyde, Room temp., Deaerated synthetic seawater): 0.6 mpy
- corrosion rate (LPR) (1200 ppm glutaraldehyde, 60° C., Aerated synthetic seawater): 8.8 mpy
- corrosion rate (LPR) (1200 ppm glutaraldehyde, 60° C., Deaerated synthetic seawater): 5.5 mpy
- corrosion rate (LPR) (1200 ppm glutaraldehyde, Room temp., Aerated synthetic seawater): 9.2 mpy
- corrosion rate (LPR) (1200 ppm glutaraldehyde, Room temp., Deaerated synthetic seawater): 1.4 mpy
